From patent US12048783B2, “2,4-disubstituted pyridines as malodor counteracting ingredients” (FIRMENICH SA, priority 2017, dated 2024) come the findings set out here.

Assay [1] relates to Staphylococcus haemolyticus ATCC 114126. The assay is described as follows: MIC test. The note with it: ATCC114126, read-out: MIC of 4-methyl-2-pentyl-pyridine, S. haemolyticus, average of three replicates, overnight 37° C., lowest concentration with no growth. The format is cell-based.
Assay [2] deals with Escherichia coli DSMZ 1103. Briefly: MIC test. The format is cell-based. As to conditions: DSMZ1103, read-out: MIC of 4-methyl-2-pentyl-pyridine, E. coli, average of three replicates, overnight 37° C., lowest concentration with no growth.

The structures appear in SMILES notation.

Turning to `CCCCCc1cc(C)ccn1`, the MIC in assay [1] turned out to be 745 ± 219 µg/mL; in assay [2], 444 ± 78.7 µg/mL.
